Human monoclonal antibodies against the spike receptor-binding domain (heavy:light variable regions). IC50 against pseudoviruses bearing the spike of naturally observed variants; lower = stronger; >10 µg/ml means not reached at the top dose. No active / inactive call. The stated detection limit is 0.0005 µg/ml; values near or below 0.001 µg/ml lie at the floor of the assay.
Columns and labels:
Assay in all cases: pseudovirus neutralization IC50; higher = weaker neutralization
[1] = target: SARS-CoV-2 Omicron BA.1 spike pseudovirus
Experimental: (§1)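 Single-round VSV luciferase pseudovirus mixed with antibody dilutions for 1 h and put on Huh-7 cells for about a day; IC50 from the dose curve.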

[2] = target: SARS-CoV-2 Omicron BA.2 spike pseudovirus
Experimental: as §1

[3] = target: SARS-CoV-2 Omicron BA.2.75 spike pseudovirus
Experimental: as §1

[4] = target: SARS-CoV-2 Omicron BA.2.75.2 spike pseudovirus
Experimental: as §1

[5] = target: SARS-CoV-2 Omicron BA.5 spike pseudovirus
Experimental: as §1

[6] = target: SARS-CoV-2 Omicron BM.1.1.1 spike pseudovirus
Experimental: as §1

[7] = target: SARS-CoV-2 Omicron BQ.1.1 spike pseudovirus
Experimental: as §1

[8] = target: SARS-CoV-2 Omicron BR.2 spike pseudovirus
Experimental: as §1

[9] = target: SARS-CoV-2 Omicron CA.1 spike pseudovirus
Experimental: as §1

[10] = target: SARS-CoV-2 Omicron XBB spike pseudovirus
Experimental: as §1

[11] = target: SARS-CoV-2 early D614G spike pseudovirus
Experimental: as §1

Measured: pseudovirus neutralization IC50

B1: BD56-1380 (protein)
chain 1: QVHLIQSGTEVKRPGASVKVSCKVSGYSLSELSMHWVRQAPGKGLEWMGGFDLRDGETIYAQKFQGRVTMSEDTSTDTAYMELRSLRSEDTAVYYCTTGGSDSFDPWGQGTLVTVSS
chain 2: DIQLTQSPSFLSASVGDRVTITCRASQGISSYLAWYQQKPGKAPKLLIYTASTLESGVPSRFSGSGSGTEFTLTISSLQPEDFATYFCQHLNNFPFTFGPGTTVDIK
> 10 µg/mL: all assays above

B2: BD56-1491 (protein)
chain 1: QLQLQESGPGLVKPSETLSLTCTVSGGSISSSSYYWGWIRQPPGKGLEWIGSIYYSGSTYYNPSLKSRVTISVDTSKNQFSLKLNSVTAADTAVYYCARLWILGNWFDPWGQGTLVTVSS
chain 2: NFMLTQPHSVSESPGKTVTISCTGSSGSIAINYVQWYQQRPGSAPTTVIYEDNQRPSGVPDRFSGSIDSSSNSASLTISGLKTEDEADYYCQSYHSSNWVFGGGTKLTVL
> 10 µg/mL: all assays above

B3: BD56-1496 (protein)
chain 1: QVQLQQSGPGLVKPSQTLSLTCAISGDSVSSNSAAWNWIRQSPSRGLEWLGRIYYRSKWYNDYAVSVKTRITINPDTSKNQFSLQLNSVTPEDTAVYYCARGGVGLDVDAFDIWGQGTMVTVSS
chain 2: QSVLTQPPSVSGAPGQRVTISCTGSSSNIGAGYDVHWYQQLPGTAPKLLIYGNSNRPSGVPDRFSGSKSGTSASLAITGLQAEDEADYYCQSYDSSLSGWVFGGGTKLTVL
> 10 µg/mL: all assays above

B4: BD58-0567 (protein)
chain 1: EVQLLESGGGLVQPGGSLSLSCSASGFTFSSYAMGWVRQAPGKGLEWVSGITDTGSGAYYADSMKGRFTVSRDNPGNTVYLQLNSLRDDDTATYYCVRYTSSWFPIGSFADWGRGTLVAVSS
chain 2: QSALTQPASVSGSPGQSITISCTGTSDDIGNYYYVSWYQQHPGKAPKLMIYDVSNRPSGVSNRFFGSKSGNTASLTIFGLQADDEADYYCSSYTTSSTWVFGGGTKLTVL
> 10 µg/mL: all assays above

B5: BD56-1495 (protein)
chain 1: EVQLVESGGGLVKPGGSLRLSCAASGFTFSSYSMNWVRQAPGKGLEWVSSISSSSSYIYYADSVKGRFTISRDNAKNSLYLQMNSLRAEDTAVYYCARSGIAHNWFDPWGQGTLVTVSS
chain 2: QPVLTQPPSASASLGASVTLTCTLSSGYSNYKVDWYQQRPGKGPRFVMRVGTGGIVGSKGDGIPDRFSVLGSGLNRYLTIKNIQEEDESDYHCGADHGSGSNFLWVFGGGTKLTVL
> 10 µg/mL: all assays above

Source: the supplement of paper PMC9931576
